# Laboratory results from publication PMC6089501 (Journal of Medicinal Chemistry, 2018).
# By UniProt entry, the sequences of proteins in these tests, tags left out. Where a name states a change or a piece, a line headed by the entry shows the natural chain unless it says otherwise.
# UniProt Q12809: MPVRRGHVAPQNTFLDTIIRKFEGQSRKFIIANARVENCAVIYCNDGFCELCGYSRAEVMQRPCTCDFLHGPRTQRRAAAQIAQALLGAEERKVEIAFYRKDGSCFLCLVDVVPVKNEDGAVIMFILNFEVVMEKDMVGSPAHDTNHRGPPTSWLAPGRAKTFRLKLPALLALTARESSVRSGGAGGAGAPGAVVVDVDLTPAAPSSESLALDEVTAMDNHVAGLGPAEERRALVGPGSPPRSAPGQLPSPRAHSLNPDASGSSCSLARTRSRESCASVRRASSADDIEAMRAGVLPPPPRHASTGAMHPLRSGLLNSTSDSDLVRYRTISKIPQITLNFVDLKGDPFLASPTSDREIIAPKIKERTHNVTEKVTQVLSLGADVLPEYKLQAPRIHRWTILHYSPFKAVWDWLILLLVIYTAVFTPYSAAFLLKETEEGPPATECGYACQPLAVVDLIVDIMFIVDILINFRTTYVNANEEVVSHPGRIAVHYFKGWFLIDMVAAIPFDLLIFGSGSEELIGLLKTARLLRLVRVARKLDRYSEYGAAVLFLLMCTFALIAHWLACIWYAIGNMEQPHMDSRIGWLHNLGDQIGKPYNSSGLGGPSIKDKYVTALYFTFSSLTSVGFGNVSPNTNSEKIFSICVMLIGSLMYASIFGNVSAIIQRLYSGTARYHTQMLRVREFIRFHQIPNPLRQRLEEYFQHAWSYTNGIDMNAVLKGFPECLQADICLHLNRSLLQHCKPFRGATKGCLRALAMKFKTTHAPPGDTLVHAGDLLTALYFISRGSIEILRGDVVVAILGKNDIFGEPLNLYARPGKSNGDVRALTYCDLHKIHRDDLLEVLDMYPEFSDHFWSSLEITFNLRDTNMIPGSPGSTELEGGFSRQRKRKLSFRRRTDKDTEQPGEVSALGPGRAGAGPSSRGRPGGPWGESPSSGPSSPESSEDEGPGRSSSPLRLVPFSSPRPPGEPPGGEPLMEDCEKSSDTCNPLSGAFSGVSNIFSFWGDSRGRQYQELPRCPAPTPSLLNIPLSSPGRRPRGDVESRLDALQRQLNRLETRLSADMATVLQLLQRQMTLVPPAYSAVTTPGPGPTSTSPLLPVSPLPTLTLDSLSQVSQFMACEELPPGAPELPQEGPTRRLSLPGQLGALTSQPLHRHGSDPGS
# Target: hERG (Homo sapiens, UniProt Q12809)
compound,measurement,value
"NC(=O)c1sc(N2CCOCC2)cc1OCCc1ccccc1 [Compound 1, 5-Morpholino-3-phenethoxythiophene-2-carboxamide]",in vitro hERG liability,no in vitro hERG liability
